According to article PMC7265457, “A disulfide constrains the ToxR periplasmic domain structure, altering its interactions with ToxS and bile-salts” (Scientific Reports, 2020):
Where two headings read alike, the source gives them in different places.

B1: V. cholerae non-disulfide bonded ToxR periplasmic domain (domain or fragment)
chain: TNPSQTSFKPLTVVDGVAVNMPNNHPDLSNWLPSIELCVKKYNEKHTGGLKPIEVIATGGQNNQLTLNYIHSPEVSGENITLRIVANPNDAIKVCE
modifications: no disulfide bond (free cysteines)
notes: also called Vc-ToxRp
B2: V. cholerae disulfide ToxR periplasmic domain (domain or fragment)
chain: B1 chain
modifications: intra-chain disulfide bond (cysteines C236 and C293)

Legend:
[1] = target: T1, V. cholerae ToxS periplasmic domain tagged with an N-terminal chitin binding domain (V. cholerae, UniProt P24003 26-173); assay: pull-down; conditions: both partners purified
T1 construct: also called CBD-ToxSp
T1 sequence: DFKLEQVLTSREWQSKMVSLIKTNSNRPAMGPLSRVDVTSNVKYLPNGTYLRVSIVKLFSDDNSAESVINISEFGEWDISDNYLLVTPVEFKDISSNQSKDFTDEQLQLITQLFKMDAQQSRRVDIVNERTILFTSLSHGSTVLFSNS

[2] = target: T1, V. cholerae ToxS periplasmic domain …; conditions: both partners purified

Binder | amount pulled down (2 mM CDC) relative to Vc-dbToxRp with CDC [1] [relative level] | fold change of the amount pulled down, 2 mM CDC against buffer [1] [fold] | fold change of the amount pulled down, 2 mM CDC against buffer [2] [fold]
B1 | 0.41 | 4 | –
B2 | – | – | 1.6
